Measured values from several laboratories, pooled; numbers as filed in NIAID ChemDB.

All rows: tests in culture; species: Enterococcus faecium

An empty or dashed field is not shown. a–b is a range or a potency band. A number after MIC or MFC names an inhibition level or a share of isolates. Rows are shuffled and stem from different studies.

smiles | measure | strain or isolate | value
CN(C)c1cc(NC(=O)CNC(C)(C)C)c(O)c2c1C[C@H]1C[C@H]3[C@H](N(C)C)C(=O)C(C(N)=O)=C(O)[C@@]3(O)C(=O)C1=C2O | MIC90 | 40 strains (vancomycin-resistant) | 0.12 µg/mL
COC(=O)CCn1c(C)nc([N+](=O)[O-])c1Sc1ccc(N2C[C@H](CNC(C)=O)OC2=O)cc1F | MIC | UC12712 (vancomycin-resistant) | >64 µg/mL
Cc1c(NC(C)C)c(F)cc2c(=O)c(C(=O)O)cn(-c3cc(N)c(F)cc3F)c12 | MIC | W1418 | 64 µg/mL
CC(=O)NC[C@H]1CN(c2ccc(NC(=O)C3=CSNN3)c(F)c2)C(=O)O1 | MIC | UC12712 (vancomycin-resistant) | 4 µg/mL
CC(=O)NC[C@H]1CN(c2ccc3c(c2)OCc2nccn2-3)C(=O)O1 | MIC | L4001 | 0.25 µg/mL
CC(=O)NC[C@H]1CN(c2ccc(N(C)C=O)c(F)c2)C(=O)O1 | MIC | UC12712 (vancomycin-resistant) | 4 µg/mL
CC[C@H]1OC(=O)[C@H](C)C(=O)[C@H](C)[C@@H](O[C@@H]2O[C@H](C)C[C@H](N(C)C)[C@H]2O)[C@](C)(OC)C[C@@H](C)C(=O)[C@H](C)[C@H]2N(CCCCn3cnc(-c4cccnc4)c3)C(=O)O[C@]12C | MIC90 | - | 2–4 µg/mL
CC(=O)NC[C@H]1CN(c2ccc(SCCO)c(F)c2)C(=O)O1 | MIC | UC12712 (vancomycin-resistant) | 4 µg/mL
Cc1c(NCCCO)c(F)cc2c(=O)c(C(=O)O)cn(-c3cc(N)c(F)cc3F)c12 | MIC | W1140 | 4 µg/mL
CC(=O)NC[C@H]1CN(c2ccc(NC(=O)c3cnccn3)c(F)c2)C(=O)O1 | MIC | UC12712 (vancomycin-resistant) | 8 µg/mL
CC(=O)NC[C@H]1CN(c2ccc(SCCC#N)c(F)c2)C(=O)O1 | MIC | UC12712 (vancomycin-resistant) | 8 µg/mL
CC(=O)NC[C@H]1CN(c2ccc(N(C)S(C)(=O)=O)c(F)c2)C(=O)O1 | MIC | UC12712 (vancomycin-resistant) | 8 µg/mL
Cc1c(NC2CC2)c(F)cc2c(=O)c(C(=O)O)cn(-c3cc(N)c(F)cc3F)c12 | MIC | W1418 | 16 µg/mL
CC1COc2c(N3CCN(C)CC3)c(F)cc3c(=O)c(C(=O)O)cn1c23 | MIC90 | - | 4–100 µg/mL
CC(=O)NC[C@H]1CN(c2ccc(SCCN3CCOCC3)c(F)c2)C(=O)O1 | MIC | UC12712 (vancomycin-resistant) | 64 µg/mL
CC(=O)NC[C@H]1CN(c2ccc(NC(=O)c3cc4ccccc4o3)c(F)c2)C(=O)O1 | MIC | UC12712 (vancomycin-resistant) | 16 µg/mL

A second listing of 2 rows from above:

smiles,measure,strain or isolate,value
COC(=O)CCn1c(C)nc([N+](=O)[O-])c1Sc1ccc(N2C[C@H](CNC(C)=O)OC2=O)cc1F,MIC,UC12712 (vancomycin-resistant),>64 µg/mL
Cc1c(NC2CC2)c(F)cc2c(=O)c(C(=O)O)cn(-c3cc(N)c(F)cc3F)c12,MIC,W1418,16 µg/mL